Results of unrelated studies side by side (data: NIAID ChemDB).

Common to all: host cell toxicity; cell line: HeLa; endpoint: CC50

Rows are shuffled and stem from different studies. Blank or dashed fields: not listed here. CCn is the concentration with n% toxicity to the cells.

CO[C@@H]1[C@@H](OC(N)=O)[C@@H](O)[C@H](Oc2ccc3c(O)c(NC(=O)c4ccc(O)c(CC=C(C)C)c4)c(=O)oc3c2C)OC1(C)C ; result: 10 µg/mL
CC(=O)O[C@@H]1CC2C[C@@H](O)[C@H]3[C@](C)(C(=O)O)CCC[C@]3(C)[C@]23CC[C@]1(C)C3 ; result: 228 µM
N=C(N)c1ccc2[nH]c(C(=N)N)cc2c1 ; read by: trypan blue ; result: >200 µg/mL
CC(C)c1ccc(OCCNC(=O)c2ccccc2Cl)cc1 ; result: 105.4 µM
C#C[C@]1(CO)O[C@@H](n2ccc(N)nc2=O)[C@@H](O)[C@@H]1O ; result: >200 µM
Nc1ncnc2c1c(Cl)cn2[C@@H]1O[C@H](CO)[C@@H](O)[C@H]1O ; read by: trypan blue ; result: 4 µg/mL
C#C[C@]1(CO)O[C@@H](n2cnc3c(=O)[nH]cnc32)C[C@@H]1O ; result: >200 µM
Cc1cccc(NCC(=O)NNCc2ccccc2)c1 ; result: <185.6 µM
C#C[C@]1(CO)O[C@@H](n2cnc3c(=O)[nH]c(N)nc32)C[C@@H]1O ; result: 52 µM
Nc1ncnc2c1ccn2[C@@H]1O[C@H](CO)[C@@H](O)[C@H]1O ; read by: trypan blue ; result: 1.25 µg/mL
CC1=C(/C=C/C(C)=C/C=C/C(C)=C/C=C/C=C(C)/C=C/C=C(C)/C=C/C2=C(C)CCCC2(C)C)C(C)(C)CCC1 ; result: >200 µg/mL
C[C@@]12CC[C@]3(C1)C(C[C@@H](O)[C@H]1[C@](C)(CO)CCC[C@@]13C)C[C@@H]2O ; result: 190 µM
Cc1cccc(OCCNC(=O)c2ccc([N+](=O)[O-])cc2Cl)c1 ; result: >149.4 µM
C[C@@]12CC[C@]3(C1)C(CC(=O)[C@H]1[C@](C)(C(=O)O)CCC[C@@]13C)CC2=O ; result: 199 µM
COC1=CC(=O)C[C@@H](C)[C@]12Oc1c(Cl)c(OC)cc(OC)c1C2=O ; result: 75 µg/mL
C#C[C@]1(CO)O[C@@H](n2cc(C)c(=O)[nH]c2=O)C[C@@H]1O ; result: 200 µM
CC(=O)NC1[C@H](COC[C@@H]2C(CO)O[C@@H](COC[C@@H]3C(CO)O[C@@H](O)C(NC(C)=O)[C@@H]3O)C(NC(C)=O)[C@@H]2O)OC(CO)[C@@H](O)[C@H]1O ; result: >200 µg/mL
Nc1ccn([C@H]2C[C@H](O)[C@](CO)(CF)O2)c(=O)n1 ; result: >200 µM
Clc1cccc(NCn2nnc3ccccc32)c1 ; result: <185.7 µM
COC(=O)[C@]1(C)CCC[C@@]2(C)[C@H]1[C@H](OC(=O)c1ccccc1)CC1C[C@H](O)[C@]3(C)CC[C@]12C3 ; result: 8.1 µM
CN1C(=O)C23CC4(C56CC78SSC(CO)(C(=O)N7C5Nc5ccccc56)N(C)C8=O)c5ccccc5NC4N2C(=O)C1(CO)SS3 ; result: 200 µg/mL
N#Cc1nc[nH]c1C(N)=O ; read by: trypan blue ; result: >500 µg/mL

Again, the opening 2 rows:

SMILES	read by	result
CO[C@@H]1[C@@H](OC(N)=O)[C@@H](O)[C@H](Oc2ccc3c(O)c(NC(=O)c4ccc(O)c(CC=C(C)C)c4)c(=O)oc3c2C)OC1(C)C		10 µg/mL
CC(=O)O[C@@H]1CC2C[C@@H](O)[C@H]3[C@](C)(C(=O)O)CCC[C@]3(C)[C@]23CC[C@]1(C)C3		228 µM